Laboratory results reported in patent US20240209034A1 (priority 2021, published 2024).

Tested on: A375P cells

SMILES: CC(C)C[C@@H]1NC(=O)[C@H](CC(=O)O)NC(=O)CNC(=O)[C@H](CCCNC(=N)N)NC(=O)[C@H](CC(C)C)NC(=O)[C@H](CC(N)=O)NC(=O)[C@@H]2C[C@@H](O)CN2C(=O)[C@H](C(C)C)NC(=O)[C@@H](NC(=O)[C@H](CC(N)=O)NC(=O)CCCC[C@@H]2SC[C@@H]3NC(=O)N[C@@H]32)CSc2c(F)c(F)c(c(F)c2F)-c2c(F)c(F)c(c(F)c2F)SC[C@@H](C(=O)N[C@H](CCCNC(=N)N)C(=O)N[C@H](C(=O)N[C@@H](CCCCN)C(=O)N[C@H](C)C(N)=O)[C@@H](C)O)NC(=O)[C@H](C(C)C)NC(=O)[C@H](CCCCN)NC(=O)[C@H](CCC(N)=O)NC(=O)[C@H](C)NC(=O)[C@H](CC(C)C)NC(=O)[C@H](C(C)C)NC(=O)[C@H](CCC(N)=O)NC1=O [C2C18 Ph RDTKAD DFBP]
- non-specific binding relative to the original A20FMDV2 peptide: 60±16%
